Key:
[1] = molecular target: AgrC-I (Staphylococcus aureus, UniProt O07911); test: Fluorescence (P3-gfp) reporter gene assay, group-I strain AH1677; assay type: cell-based, S. aureus
[2] = test system: TSST-1 production in wild-type group-III S. aureus (MN8); test: TSST-1 ELISA assay; assay type: cell-based; settings: for reduction of TSST production: 100 μM, pure cyclic dipeptide, MN8

Chains of the proteins cited; added tags and fusions are not shown. Residues count along the entry.
UniProt O07911, 1-430: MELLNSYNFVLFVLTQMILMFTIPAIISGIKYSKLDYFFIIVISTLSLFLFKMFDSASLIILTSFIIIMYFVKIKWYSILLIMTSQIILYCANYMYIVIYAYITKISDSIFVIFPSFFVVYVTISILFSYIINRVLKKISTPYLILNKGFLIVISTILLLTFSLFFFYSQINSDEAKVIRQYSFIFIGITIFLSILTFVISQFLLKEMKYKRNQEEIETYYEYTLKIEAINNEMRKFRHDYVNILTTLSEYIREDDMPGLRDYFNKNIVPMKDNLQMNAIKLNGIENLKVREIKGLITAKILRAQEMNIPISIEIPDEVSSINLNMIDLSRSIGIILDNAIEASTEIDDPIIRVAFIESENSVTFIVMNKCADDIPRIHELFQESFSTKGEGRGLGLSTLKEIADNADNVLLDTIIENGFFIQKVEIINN

Compound | fold change (loss of ability to inhibit AgrC-I) relative to AIP-III [1] | TSST-1 production by a group-III S. aureus strain ([2]; low μM concentrations) | reduction of TSST production [2]
CC[C@@H](C)C1NC(=O)CN(CC(=O)N[C@H]2CSC(=O)[C@H](CC(C)C)NC(=O)[C@H](CC(C)C)NC(=O)[C@H](Cc3ccccc3)NC(=O)[C@H](CC(=O)O)NC2=O)C1=O (stereo partly drawn) [AIP-III nN2 DKP, (I-nN)-(C-D-F-L-L)] | > 20 fold | significantly reduced TSST-1 production | –
cyclo-(Tyr-Pro) | – | – | 50%
cyclo-(Phe-Pro) | – | – | 80%

Reference: patent US20200140489A1 (priority 2013, published 2020)
